Measured values from several laboratories, pooled; numbers as filed in NIAID ChemDB.

All rows: tests in culture; species: Mycobacterium tuberculosis

ECn is the concentration giving n% inhibition of infection, replication or growth.

smiles | measure | dose | strain | mutations | method | value
C=C1C(=O)O[C@@H]2C[C@@]3(C)CCCC(=C)[C@@H]3C[C@H]12 | MIC | - | H37Rv | - | - | 32 µg/mL
Cn1c(=O)cc(Oc2nc(Nc3ccc(C#N)cc3)nc(Nc3nc4ccc(Br)cc4s3)n2)c2ccccc21 | inhibition | 50 µg/mL | - | - | agar | 97%
Nc1ccc(C(=O)O)c(O)c1 | Mean MIC | - | H37Ra | - | - | 1.75 µg/mL
Cc1nc2ccccc2c(=O)n1NC(=O)c1ccc(N)cc1 | inhibition | 6.25 µg/mL | H37Rv | - | resazurin | -15%
CN(C)CC1CCC/C(=C\c2ccc(OC(=O)/C=C/c3ccc(F)cc3)cc2)C1=O | EC50 | - | H37Rv | - | - | <12.5 µg/mL
Cn1c(=O)cc(Oc2nc(Nc3ccc(C#N)cc3)nc(Nc3nc4ccc(Cl)cc4s3)n2)c2ccccc21 | MIC | - | - | - | agar | 100 µg/mL
C=C1C(=O)O[C@@H]2C[C@@]3(C)CCC[C@H](C)[C@@]34O[C@H]4[C@H]12 | MIC | - | H37Rv | - | - | 8 µg/mL
Cc1ccc(NC(=S)NNC(=O)c2c(C)nc3c(C)cccn23)cc1 | MIC | - | H37Rv | - | - | >12.5 µM
Cn1cc([N+](=O)[O-])cc1C(=O)C(Cl)(Cl)Cl | MIC bound | - | H37Rv | - | resazurin | >6.25 µg/mL
COC(=O)c1c(C(=O)OC)c2c(Br)cc3ccccc3n2c1C(=O)c1ccc(C#N)cc1 | MIC | - | - | XDR | resazurin | 16 µg/mL
Cn1c(=O)cc(Oc2nc(Nc3ccc(C#N)cc3)nc(Oc3cc(=O)oc4ccccc34)n2)c2ccccc21 | MIC | - | - | - | agar | 100 µg/mL
O=C(c1ccncc1)N1N=C(c2cccs2)CC1(O)C(Cl)(Cl)Cl | MIC | - | H37Rv | - | - | >257 µM
Cc1cn2c(C(=O)NCc3ccc(N4CCN(c5ccc(C(F)(F)F)cn5)CC4)c(F)c3)c(C)nc2s1 | MIC | - | H37Rv | QcrB5 M342I | resazurin / fluorescence | <0.024 µM
O=C(/C=C/c1ccc(Cl)c(Cl)c1)Oc1ccc(/C=C2\CCCCC2=O)cc1 | EC50 | - | H37Rv | - | - | >12.5 µg/mL
N/C(=N\N=C/c1cn(Cc2ccc(Br)cc2)c2ccccc12)c1ccc2ccccc2n1 | MIC | - | H37RV (INH RMP OFL-S) | - | - | 64 µg/mL
C=C1C(=O)O[C@@H]2C[C@@]3(C)C=CC(=O)C(=C)[C@@H]3C[C@H]12 | MIC | - | H37Rv | - | - | 16 µg/mL
COc1ccc2nc(-c3ccc(OC)c(OC)c3)[nH]c2c1 | MIC | - | H37Rv | - | radiometric | >500 µM
COC(=O)[C@@H](O)[C@](O)(CCC(C)C)C(=O)O[C@@H]1C(OC)=C[C@]23CCCN2CCc2cc4c(cc2[C@H]13)OCO4 | inhibition | 12.5 µg/mL | H37Rv | - | BACTEC | 7%
CN(C)CC1CCC/C(=C\c2ccc(OC(=O)/C=C/c3ccc(Cl)c(Cl)c3)cc2)C1=O | inhibition | 12.5 µg/mL | H37Rv | - | - | 99%
Cc1cn2c(C(=O)NCc3ccc(C(F)(F)F)cc3)c(C)nc2s1 | MIC | - | H37Rv | K14b00DS | resazurin / fluorescence | 0.25 µM
Cc1ccc(C2=NN(C(=O)c3ccncc3)C(O)(C(F)(F)F)C2)cc1 | MIC | - | RGH101 | - | - | 8.94 µM
CC(=O)Oc1ccc2c(c1)C[C@]1(C)[C@@H](C)CCC3C(C)(C)CCC[C@]31O2 | EC50 | - | H37Rv | - | - | >6.25 µg/mL
CO[C@H]1/C=C/O[C@@]2(C)Oc3c(C)c(O)c4c(O)c(c5c(c4c3C2=O)NC2(CCN(CC(C)C)CC2)N=5)=NC(=O)/C(C)=C\C=C\[C@H](C)[C@H](O)[C@@H](C)[C@@H](O)[C@@H](C)[C@H](OC(C)=O)[C@@H]1C | MIC90 | - | 32 clinical isolates | - | - | 10 µg/mL
COc1ccc(-c2nc3ccccc3[nH]2)cc1O | MIC | - | H37Rv | - | radiometric | >500 µM
Cc1nc(C(N)=S)sc1C(=O)CC(=O)C(=O)Nc1nc2ccccc2[nH]1 | MIC bound | - | H37Rv | - | resazurin | <6.25 µg/mL
Cc1cn2c(C(=O)NCc3ccc(N4CCC(c5ccc(OC(F)(F)F)cc5)CC4)cc3)c(C)nc2s1 | MIC | - | H37Rv | QcrB7 S182P | resazurin / fluorescence | 0.3 µM
O=C(c1ccncc1)N1N=CCC1(O)C(F)(F)F | MIC | - | RGH104 | - | - | 24.13 µM
NNC(=O)c1ccncc1 | MIC | - | H37Rv | - | resazurin | 0.03 µM
C(=N\N=C(N/N=C/C1CNCCN1)N/N=C/C1CNCCN1)/C1CNCCN1 | MIC | - | H37Rv | - | BACTEC | ≥12.5 µg/mL
CN[C@@H]1[C@@H](O)[C@@H](O[C@@H]2[C@@H](O)[C@H](O[C@H]3O[C@H](CN)CC[C@H]3N)[C@@H](N)C[C@H]2N)OC[C@]1(C)O | Mean MIC | - | H37Rv | - | - | 3.5 µg/mL
CC(C)C1C(=O)C(C(=O)NCNC(C(=O)O)[C@H](C)O)=C(O)C2(O)C(=O)C3=C(O)c4c(O)cccc4[C@@](C)(O)[C@H]3C[C@@H]12 | inhibition | 12.5 µg/mL | H37Rv | - | BACTEC | 0%
c1ccc2[nH]c(-c3ccc4c(c3)OCO4)nc2c1 | MIC | - | H37Rv | - | radiometric | >500 µM
C[C@@H]1CN(c2c(F)c(N)c3c(=O)c(C(=O)O)cn(C4CC4)c3c2F)C[C@H](C)N1 | MIC50 | - | 100 isolates | - | - | 0.5 µg/mL
Cc1cn2c(C(=O)NCc3ccc(N4CCC(Oc5cccc(C(F)(F)F)c5)CC4)c(F)c3)c(C)nc2s1 | MIC | - | H37Rv | - | luminescence | <0.39 µM
N/C(=N\N=C/c1cn(Cc2ccccc2Cl)c2ccccc12)c1ccccn1 | MIC | - | H37RV (INH RMP OFL-S) | - | - | 32 µg/mL
CN(C)c1ccc(-c2nc3ccccc3[nH]2)cc1 | MIC | - | H37Rv | - | radiometric | >500 µM
C=CCNC(=S)/N=C/C(C(=O)Nc1ccccc1)=C(/C)O | MIC bound | - | H37Rv | - | resazurin | >6.25 µg/mL
N/C(=N\N=C/c1cn(Cc2cccc(Br)c2)c2ccccc12)c1ccccn1 | MIC | - | H37RV (INH RMP OFL-S) | - | - | 16 µg/mL
COc1ccc2nc(-c3ccccc3OC)[nH]c2c1 | MIC | - | H37Rv | - | radiometric | >500 µM
O=C1c2ccccc2C(=Cc2cccnc2)c2ccccc21 | inhibition | 12.5 µg/mL | H37Rv | - | BACTEC | 87%
CO[C@H]1/C=C/O[C@@]2(C)Oc3c(C)c(O)c4c(O)c(c(/C=N/N5CCN(C)CC5)c(O)c4c3C2=O)NC(=O)/C(C)=C\C=C\[C@H](C)[C@H](O)[C@@H](C)[C@@H](O)[C@@H](C)[C@H](OC(C)=O)[C@@H]1C | Median MIC | - | H37Rv | - | - | 0.1 µg/mL
CC(C(=O)N1C(=O)N(C(=O)C(C)C(O)c2ccccc2)C(c2ccccc2)C1c1ccccc1)C(O)c1ccccc1 | inhibition | 12.5 µg/mL | H37Rv | - | BACTEC | 100%
COc1ccc(C(=O)Oc2ccc(/C=C3\CCCCC3=O)cc2)cc1 | EC50 | - | H37Rv | - | - | <12.5 µg/mL
COc1ccc2oc3c(ccc[n+]3C)c(=O)c2c1 | inhibition | 12.5 µg/mL | H37Rv | - | BACTEC | 0%
CC1(C)S[C@@H]2[C@H](NC(=O)[C@H](N)c3ccc(O)cc3)C(=O)N2[C@H]1C(=O)O | MIC50 | - | 9 strains (MDR) | - | - | 64 µg/mL
C[C@H]1COC2(CCN(c3nc(=O)c4cc(C(F)(F)F)cc(-n5cc(Cc6ccccc6)nn5)c4s3)CC2)O1 | MIC | - | H37Rv | - | resazurin | >1 µM
Cc1ccc(/C=C/C(=O)Oc2ccc(/C=C3\CCCC(CN(C)C)C3=O)cc2)cc1 | inhibition | 12.5 µg/mL | H37Rv | - | - | 99%
C[C@H]1CCC[C@]2(C)C[C@H]3OC(=O)C(O)(CO)[C@H]3C=C12 | MIC | - | H37Rv | - | - | >128 µg/mL
COc1ccc2nc(Nc3nc(Nc4ccc(C#N)cc4)nc(Oc4cc(=O)n(C)c5ccccc45)n3)sc2c1 | inhibition | 62.5 µg/mL | - | - | agar | 97%
CO[C@H]1/C=C/O[C@@]2(C)Oc3c(C)c(O)c4c(O)c(c5c(c4c3C2=O)NC2(CCN(CC(C)C)CC2)N=5)=NC(=O)/C(C)=C\C=C\[C@H](C)[C@H](O)[C@@H](C)[C@@H](O)[C@@H](C)[C@H](OC(C)=O)[C@@H]1C | Mean MIC | - | H37Rv | - | - | 0.038 µg/mL
CCCCCCCCCCCCCCCC(=O)N(O)CCCC[C@H](NC(=O)C1COC(c2ccccc2O)=N1)C(=O)O[C@H](C)[C@H](NC(=O)OC(C)(C)C)C(=O)N[C@H]1CCCCN(O)C1=O | MIC | - | H37Rv | - | - | >12.5 µg/mL
N/C(=N\N=C/c1cn(Cc2cccc(Cl)c2)c2ccccc12)c1ccc2ccccc2n1 | MIC | - | H37RV (INH RMP OFL-S) | - | - | >128 µg/mL
Cc1ccc(S(=O)(=O)Oc2ccc3oc4c(CO)ccc(NCCN(C)C)c4c(=O)c3c2)cc1 | MIC | - | H37Rv | - | BACTEC | ≥12.5 µg/mL
N[C@@H]1CONC1=O | Mean MIC | - | H37Ra | - | - | 17 µg/mL
CC1=C(C(=O)N(C)c2ccc(Cl)c(C(=O)OC(C)C)c2)SCCO1 | inhibition | 12.5 µg/mL | H37Rv | - | BACTEC | 0%
O=C(c1ccncc1)N1N=C(c2ccccc2)CC1(O)C(F)(F)F | MIC | - | RGH103 | - | - | >298.5 µM
c1ccc2[nH]c(-c3ccnc4ccccc34)nc2c1 | MIC | - | H37Rv | - | radiometric | >500 µM
CO/N=C(\C(=O)N[C@@H]1C(=O)N2C(C(=O)O)=C(CSc3nc(=O)c(=O)[nH]n3C)CS[C@H]12)c1csc(N)n1 | MIC90 | - | 24 strains (drug-susceptible) | - | - | 256 µg/mL
S=C(Nc1ccc(I)cc1)SCc1ccco1 | inhibition | 6.25 µg/mL | H37Rv | - | resazurin | 11%
C[C@@H]1CN(c2c(F)c(N)c3c(=O)c(C(=O)O)cn(C4CC4)c3c2F)C[C@H](C)N1 | Mean MIC | - | H37Rv | - | - | 0.15 µg/mL
Cn1cc(NC(=O)c2cc(NC(=O)Nc3cc(C(=O)Nc4cc(C(=O)Nc5ccc6cc(S(=O)(=O)O)cc(S(=O)(=O)O)c6c5)n(C)c4)n(C)n3)nn2C)cc1C(=O)Nc1ccc2cc(S(=O)(=O)O)cc(S(=O)(=O)O)c2c1 | MIC bound | - | H37Rv | - | BACTEC | >12.5 µg/mL
CNC1CCCN(c2c(F)cc3c(=O)c(C(=O)O)cn(C4CC4)c3c2OC)C1 | MIC50 | - | 100 isolates | - | - | 2 µg/mL
C=CC1CN2CCC1CC2C(O)c1ccnc2ccc(OC)cc12.CC1C2CCC(C2)C1C(=O)O | MIC bound | - | H37Rv | - | resazurin | >6.25 µg/mL
Cc1nc2c(C)cccn2c1C(=O)NNC(=S)Nc1ccccc1 | MIC | - | H37Rv | - | - | 12.5 µM
O=C(CNC(=O)Nc1ccc(Cl)c(Cl)c1)NNC(=O)Nc1ccc(F)c(Cl)c1 | inhibition | 12.5 µg/mL | H37Rv | - | BACTEC | 58%
CN(C)CC1CCC/C(=C\c2ccc(OC(=O)/C=C/c3ccccc3)cc2)C1=O | EC50 | - | H37Rv | - | - | <12.5 µg/mL
c1ccc(OCc2nnc3n2N=C(c2ccccc2)CS3)cc1 | inhibition | 12.5 µg/mL | H37Rv | - | BACTEC | 37%
Cn1c(=O)cc(Oc2nc(Nc3ccc(C#N)cc3)nc(Nc3nc4ccc([N+](=O)[O-])cc4s3)n2)c2ccccc21 | MIC | - | - | - | agar | 100 µg/mL
CC[CH2][Sn]([Br])([Br])[CH2]CC.c1cnc2c(c1)ccc1cccnc12 | MIC | - | H37Rv | - | - | 6.25 µg/mL
CC[C@H]1OC(=O)[C@H](C)[C@@H](O[C@H]2C[C@@](C)(OC)[C@@H](O)[C@H](C)O2)[C@H](C)[C@@H](O[C@@H]2O[C@H](C)C[C@H](N(C)C)[C@H]2O)[C@](C)(OC)C[C@@H](C)C(=O)[C@H](C)[C@@H](O)[C@]1(C)O | Median MIC | - | H37Ra | - | - | 1.5 µg/mL
CC[C@H](C)C(=O)O[C@@H]1C[C@@]2(C)[C@H](c3ccoc3)OC(=O)C[C@]23OC2(C)OC34[C@H](OC(=O)C(C)C)[C@]3(O)[C@@H](OC(=O)[C@]5(C)O[C@H]5C)C5(C)C[C@]3(O)[C@](C)([C@H]5CC(=O)OC)C14O2 | inhibition | 12.5 µg/mL | H37Rv | - | BACTEC | 20%
N/C(=N\N=C/c1cn(Cc2ccc(Cl)cc2Cl)c2ccccc12)c1ccccn1 | MIC | - | H37RV (INH RMP OFL-S) | - | - | >128 µg/mL
Nc1nnc2nc(C(C(=O)c3ccc(O)cc3O)c3nc4nnc(N)n4[nH]c3=O)c(=O)[nH]n12 | inhibition | 12.5 µg/mL | H37Rv | - | BACTEC | 12%
CCCCCCCCCCCCCCCC(=O)N(O)CCCC[C@@H](NC(=O)[C@@H]1COC(c2ccccc2O)=N1)C(=O)NCCC(=O)NC1CCCCN(O)C1=O | MIC | - | H37Rv | - | - | >12.5 µg/mL

A second listing of 7 rows from above:

| smiles | measure | dose | strain | mutations | method | value |
|---|---|---|---|---|---|---|
| COC(=O)c1c(C(=O)OC)c2c(Br)cc3ccccc3n2c1C(=O)c1ccc(C#N)cc1 | MIC | - | - | XDR | resazurin | 16 µg/mL |
| Cc1cn2c(C(=O)NCc3ccc(C(F)(F)F)cc3)c(C)nc2s1 | MIC | - | H37Rv | K14b00DS | resazurin / fluorescence | 0.25 µM |
| Nc1ccc(C(=O)O)c(O)c1 | Mean MIC | - | H37Ra | - | - | 1.75 µg/mL |
| CNC1CCCN(c2c(F)cc3c(=O)c(C(=O)O)cn(C4CC4)c3c2OC)C1 | MIC50 | - | 100 isolates | - | - | 2 µg/mL |
| c1ccc2[nH]c(-c3ccnc4ccccc34)nc2c1 | MIC | - | H37Rv | - | radiometric | >500 µM |
| O=C(c1ccncc1)N1N=CCC1(O)C(F)(F)F | MIC | - | RGH104 | - | - | 24.13 µM |
| Cc1ccc(S(=O)(=O)Oc2ccc3oc4c(CO)ccc(NCCN(C)C)c4c(=O)c3c2)cc1 | MIC | - | H37Rv | - | BACTEC | ≥12.5 µg/mL |

Percent inhibition refers to the dose given; in toxicity tests it is the harm to the cells. MIC bound: limit read from a one-dose screen. Blank or dashed fields: not listed here. Conditions beyond the fields shown may differ between rows. MIC50, MIC90 and the like: level of inhibition, or share of isolates inhibited.